## HIV-1 LAI Vif substitutions under APOBEC3G selection

Source: Langley et al. 2025, preprint (doi:10.1101/2025.10.20.683452), supplementary data.

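Pooled viruses with one designed change each in Vif went through two 72 h rounds in SupT1 cells expressing APOBEC3G. Each of three replicates was sequenced after round two and set against the merged round-one pool.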

Scanned stretch, residues 12 to 115 of Vif from HIV-1 LAI (a laboratory-adapted subtype B strain):
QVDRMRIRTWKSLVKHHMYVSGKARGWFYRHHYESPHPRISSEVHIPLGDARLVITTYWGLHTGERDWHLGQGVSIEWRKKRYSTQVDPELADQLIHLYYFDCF

Values are log2 enrichment relative to wild type (0); lower means weaker defence against APOBEC3G and poorer growth.
Each entry names the wild-type residue, its position and the residue put in its place.
This list holds changes to glutamate only.
The median of three replicates is given.
Input reads are the counts in the merged round-one pool, before selection.
Replicates agree only moderately (rank correlation about 0.4-0.65); scores from under about 50 input reads tend to be too high.

* D78E (input reads 767) -> -0.76
* W79E (input reads 486) -> -3.95
* H80E (input reads 433) -> -3.79
* L81E (input reads 88) -> -0.25
* Q83E (input reads 826) -> -1.36
* G84E (input reads 370) -> -1.23
* S86E (input reads 24) -> 1.51
* I87E (input reads 490) -> -2.40
* W89E (input reads 775) -> -2.63
* R90E (input reads 890) -> -3.27
* K91E (input reads 379) -> -4.35
* K92E (input reads 1110) -> -1.62
* T96E (input reads 394) -> -1.77
* V98E (input reads 386) -> -3.72
* D99E (input reads 74) -> 0.02
* P100E (input reads 101) -> -0.57
* L102E (input reads 165) -> -5.16
* A103E (input reads 105) -> -2.95
* D104E (input reads 53) -> 1.42
* I107E (input reads 132) -> -0.92
* Y110E (input reads 340) -> -2.59
* Y111E (input reads 141) -> -1.78
* F112E (input reads 19) -> 0.21
* D113E (input reads 971) -> -1.32
* C114E (input reads 56) -> 0.27

Not every substitution is listed.
Positive scores are uncertain; some enriched variants did not exclude APOBEC3G in a separate test.